From paper PMC3278406 (PLoS ONE, 2012)

Target: Stx2 toxoid (Escherichia phage 933W, UniProt P09386)
Format: binding, Escherichia coli O157:H7
Conditions: read-out: apparent Kd of Stx2

Work on “Globotriaosyl ceramide, Ceramide trihexoside [Gb3]” yielded a Kd of 6.4 nM.
